Data taken from patent EP4825846A1, “PREPARATION METHOD FOR URACIL COMPOUND AND USE OF URACIL COMPOUND” (dated 2026).

What was measured:
Assay in all cases: Determination of antifungal activity, mycelial growth inhibition by plate method
[1] = test system: Phytophthora infestans; conditions: against P. infestans at a concentration of 1500 µg/mL; rye medium, 18°C, away from light
[2] = test system: Ustilaginoidea virens; conditions: against U. virens at a concentration of 1500 µg/mL; PSA medium, 25°C, away from light
[3] = test system: Magnaporthe oryzae; conditions: against M. oryzae at a concentration of 1500 µg/mL; CM medium, 28°C, away from light

Compound	inhibition rate [1]	inhibition rate [2]	inhibition rate [3]
CCOC(=O)Nc1cc(C(=O)O)c(Cl)cc1F	100%		
O=C(Nc1cc(C(=O)O)c(Cl)cc1F)OCc1ccccc1	100%		
CCCOC(=O)Nc1cc(C(=O)O)c(Cl)cc1F	100%		
CCCCCCOC(=O)Nc1cc(C(=O)O)c(Cl)cc1F	100%	100%	100%
O=C(Nc1cc(C(=O)O)c(Cl)cc1F)OCCCl	100%		
CCCCCOC(=O)Nc1cc(C(=O)O)c(Cl)cc1F	100%	100%	100%
CC(C)COC(=O)Nc1cc(C(=O)O)c(Cl)cc1F	100%		
CCCCOC(=O)Nc1cc(C(=O)O)c(Cl)cc1F	100%		100%
C=CCOC(=O)Nc1cc(C(=O)O)c(Cl)cc1F	100%		100%
CCCCCCCOC(=O)Nc1cc(C(=O)O)c(Cl)cc1F	100%	100%	
O=C(Nc1cc(C(=O)O)c(Cl)cc1F)OC1CCCC1	100%		
COC(=O)Nc1cc(C(=O)O)c(Cl)cc1F	100%		
O=C(Nc1cc(C(=O)O)c(Cl)cc1F)Oc1ccccc1	100%		100%
CC(C)OC(=O)Nc1cc(C(=O)O)c(Cl)cc1F	100%		
